## Share of PSTVd loop 15 variants by leaf site

Region: loop 15 of PSTVd (intermediate strain), upper and lower strand joined, each 5' to 3', the first 7 letters being the upper strand, closing pairs included. Wild type: GGAAACCGCUACUAC. Varied positions (N): GGAAACCGNNNNNNC.

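Three N. benthamiana plants were inoculated with the whole mutant pool. Progeny were sequenced from the inoculated region (day 5), the margin of the inoculated leaf (day 10) and systemic leaves (day 12).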

Numbers give reads per thousand; 0 = not seen among the reads, higher = more abundant. Each site shows the three plants. "Pool" is the share in the plasmid pool used as inoculum, on the same scale. The inoculated region was read from the minus strand, the other sites from the plus strand. For reference, wild type rose from 33.9 per thousand in the pool to 202, 200, 159 (inoculated region), 724, 746, 710 (leaf margin) and 856, 883, 880 (systemic leaves). The authors trace changes outside the varied positions to PCR and sequencing errors or to mutation in the plant; presence does not show that a variant is infectious alone. Samples held 43,870 to 66,106 reads, so the smallest values rest on one or two reads.

sequence	pool	inoculated region	leaf margin	systemic leaves
GGAAACCGCCUCUCC	0.160	0.0819 / 0.0643 / 0.0571	0.0162 / 0 / 0.0401	0.0161 / 0 / 0
GGAAACCGCCUCUGC	0.240	0.180 / 0.225 / 0.228	0 / 0 / 0.0200	0 / 0 / 0
GGAAACCGCCUCUUC	0.144	0.115 / 0.145 / 0.0952	0.0162 / 0 / 0	0 / 0 / 0
GGAAACCGCCUGAAC	0.224	0.115 / 0.0482 / 0.114	0 / 0 / 0	0 / 0 / 0
GGAAACCGCCUGACC	0.272	0.262 / 0.161 / 0.133	0 / 0.0223 / 0.0401	0.0322 / 0 / 0
GGAAACCGCCUGAGC	0.176	0.164 / 0.209 / 0.190	0 / 0 / 0	0 / 0 / 0.0228
GGAAACCGCCUGAUC	0.224	0.197 / 0.321 / 0.343	0.0485 / 0 / 0.0200	0.0161 / 0 / 0
GGAAACCGCCUGCAC	0.224	0.0983 / 0.0482 / 0.152	0 / 0 / 0.0200	0 / 0 / 0
GGAAACCGCCUGCCC	0.288	0.0328 / 0.0803 / 0.0762	0 / 0 / 0	0.0161 / 0 / 0
GGAAACCGCCUGCGC	0.192	0.0655 / 0.161 / 0.114	0.0162 / 0 / 0	0 / 0 / 0
GGAAACCGCCUGCUC	0.128	0.0655 / 0.0964 / 0.152	0 / 0 / 0.0401	0 / 0 / 0
GGAAACCGCCUGGAC	0.224	0.278 / 0.257 / 0.0762	0 / 0.0223 / 0	0 / 0 / 0
GGAAACCGCCUGGCC	0.176	0.131 / 0.0161 / 0.0762	0.0162 / 0 / 0.0200	0 / 0 / 0
GGAAACCGCCUGGGC	0.240	0.213 / 0.193 / 0.152	0.0162 / 0.0223 / 0.0200	0 / 0 / 0
GGAAACCGCCUGGUC	0.128	0.0655 / 0.161 / 0.0952	0 / 0 / 0	0 / 0 / 0
GGAAACCGCCUGUAC	0.256	0.360 / 0.337 / 0.381	0.0970 / 0.178 / 0.180	0.0483 / 0.121 / 0.114
GGAAACCGCCUGUCC	0.144	0.0655 / 0.0482 / 0.114	0 / 0.0223 / 0.0200	0 / 0 / 0
GGAAACCGCCUGUGC	0.256	0.295 / 0.209 / 0.343	0.0970 / 0.111 / 0.220	0.0805 / 0 / 0
GGAAACCGCCUGUUC	0.224	0.278 / 0.353 / 0.343	0.0647 / 0.0223 / 0.140	0.0322 / 0.0454 / 0.0456
GGAAACCGCCUUAAC	0.240	0.115 / 0.0964 / 0.209	0.0323 / 0 / 0	0.0161 / 0 / 0
GGAAACCGCCUUACC	0.208	0.197 / 0.112 / 0.152	0.0162 / 0 / 0	0.0161 / 0 / 0
GGAAACCGCCUUAGC	0.256	0.0655 / 0.0643 / 0.0762	0.0162 / 0 / 0	0 / 0 / 0
GGAAACCGCCUUAUC	0.256	0.115 / 0.145 / 0.0381	0.0485 / 0.0223 / 0.0200	0 / 0 / 0
GGAAACCGCCUUCAC	0.368	0.115 / 0.0161 / 0.0381	0.0162 / 0 / 0.0401	0 / 0 / 0
GGAAACCGCCUUCCC	0.256	0.0491 / 0.177 / 0.133	0.0162 / 0 / 0	0 / 0 / 0
GGAAACCGCCUUCGC	0.240	0.0655 / 0.0964 / 0.0381	0 / 0 / 0	0 / 0 / 0
GGAAACCGCCUUCUC	0.336	0.115 / 0.129 / 0.0952	0 / 0 / 0	0 / 0 / 0
GGAAACCGCCUUGAC	0.208	0.115 / 0.0964 / 0.133	0.0323 / 0 / 0.0200	0 / 0 / 0
GGAAACCGCCUUGCC	0.240	0.0983 / 0.0803 / 0.114	0.0162 / 0.0223 / 0	0 / 0 / 0
GGAAACCGCCUUGGC	0.192	0.278 / 0.209 / 0.209	0.0162 / 0 / 0	0.0161 / 0 / 0
GGAAACCGCCUUGUC	0.272	0.0164 / 0.0964 / 0.0762	0.0162 / 0 / 0	0 / 0 / 0
GGAAACCGCCUUUAC	0.192	0.393 / 0.305 / 0.362	0.129 / 0.0668 / 0.160	0.0161 / 0.0303 / 0.137
GGAAACCGCCUUUCC	0.176	0.0328 / 0.0321 / 0.0381	0 / 0.0223 / 0.0601	0 / 0 / 0
GGAAACCGCCUUUGC	0.256	0.180 / 0.145 / 0.0190	0.0162 / 0 / 0	0 / 0 / 0
GGAAACCGCCUUUUC	0.224	0.180 / 0.0482 / 0.0190	0.0162 / 0 / 0	0 / 0 / 0
GGAAACCGCGAAAAC	0.272	0.311 / 0.402 / 0.381	0.0808 / 0.0891 / 0.220	0.0644 / 0.0756 / 0.0684
GGAAACCGCGAAACC	0.208	0.147 / 0.0964 / 0.0571	0.0162 / 0 / 0.0401	0 / 0 / 0
GGAAACCGCGAAAGC	0.208	0.0819 / 0.0964 / 0.152	0 / 0.0445 / 0	0 / 0 / 0
GGAAACCGCGAAAUC	0.224	0.0819 / 0.0803 / 0.114	0 / 0 / 0.0200	0 / 0 / 0
GGAAACCGCGAACAC	0.272	0.475 / 0.434 / 0.514	0.0647 / 0.0668 / 0.160	0.0805 / 0.121 / 0.0912
GGAAACCGCGAACCC	0.224	0.115 / 0.0643 / 0.133	0 / 0 / 0	0 / 0 / 0
GGAAACCGCGAACGC	0.160	0.0491 / 0.161 / 0.0762	0.0162 / 0.0223 / 0	0.0161 / 0 / 0
GGAAACCGCGAACUC	0.208	0.344 / 0.321 / 0.400	0.178 / 0.111 / 0.200	0.0161 / 0 / 0
GGAAACCGCGAAGAC	0.288	0.0819 / 0.0161 / 0.0571	0 / 0.0668 / 0.0200	0 / 0 / 0

The opening 3 entries, copied out:

| sequence | pool | inoculated region | leaf margin | systemic leaves |
|---|---|---|---|---|
| GGAAACCGCCUCUCC | 0.160 | 0.0819 / 0.0643 / 0.0571 | 0.0162 / 0 / 0.0401 | 0.0161 / 0 / 0 |
| GGAAACCGCCUCUGC | 0.240 | 0.180 / 0.225 / 0.228 | 0 / 0 / 0.0200 | 0 / 0 / 0 |
| GGAAACCGCCUCUUC | 0.144 | 0.115 / 0.145 / 0.0952 | 0.0162 / 0 / 0 | 0 / 0 / 0 |

Reference: Wu et al. 2024, doi:10.1371/journal.ppat.1012142.